Pooled drug test results. Numbers come from NIAID ChemDB, via PubChem.

Shared fields: tests in culture; organism: Candida glabrata

ECn is the concentration giving n% inhibition of infection, replication or growth. Conditions beyond the fields shown may differ between rows. MIC50, MIC90 and the like: level of inhibition, or share of isolates inhibited. Blank or dashed fields: not listed here.

{"compound": "COc1ccc(C(c2ccc(OC)cc2)n2cncn2)cc1", "method": "broth dilution", "read-out": "MFC", "value": ">256 µg/mL"}
{"compound": "C=CCc1ccc(OC)c(OC)c1", "strain or isolate": "3080", "method": "turbidity", "read-out": "MIC90", "value": "350 µg/mL"}
{"compound": "CC(C)CC(O)C(=O)O", "strain or isolate": "CCUG 32725", "method": "broth dilution / visual reading", "read-out": "MFC100", "value": "72000 µg/mL"}
{"compound": "CC1CC(=O)N(CCCc2ccccc2)C1=O", "strain or isolate": "CCC 115-2000", "method": "broth dilution / turbidity", "read-out": "MIC", "value": "125 µg/mL"}
{"compound": "CCC(C)n1ncn(-c2ccc(N3CCN(c4ccc(OC[C@H]5CO[C@](Cn6cncn6)(c6ccc(Cl)cc6Cl)O5)cc4)CC3)cc2)c1=O", "method": "broth dilution", "read-out": "MIC90", "value": "1 µg/mL"}
{"compound": "COc1ccc(C(c2ccc(OC)cc2)n2ccnc2)cc1", "method": "broth dilution", "read-out": "MFC", "value": ">256 µg/mL"}
{"compound": "C[C@@H]1C(=O)N(c2ccccc2)C(=O)[C@@H]1C", "strain or isolate": "CCC 115-2000", "method": "broth dilution / turbidity", "read-out": "MIC", "value": "62.5 µg/mL"}
{"compound": "C[C@@H](c1ncncc1F)[C@](O)(Cn1cncn1)c1ccc(F)cc1F", "strain or isolate": "40 isolates", "method": "broth dilution", "read-out": "EC90", "conditions": "pH 5", "value": ">16 µg/mL"}
{"compound": "CC[C@@H]([C@H](C)O)n1ncn(-c2ccc(N3CCN(c4ccc(OC[C@@H]5CO[C@@](Cn6cncn6)(c6ccc(F)cc6F)C5)cc4)CC3)cc2)c1=O", "method": "broth dilution", "read-out": "MIC90", "value": "1 µg/mL"}
{"compound": "Nc1[nH]c(=O)ncc1F", "strain or isolate": "40 isolates", "method": "broth dilution", "read-out": "EC90", "conditions": "pH 6", "value": "0.125 µg/mL"}
{"compound": "COc1ccc(N2C(=O)C[C@@H](C)C2=O)cc1", "strain or isolate": "CCC 115-2000", "method": "broth dilution / turbidity", "read-out": "MIC", "value": "62.5 µg/mL"}
{"compound": "Clc1ccccc1C(c1ccccc1)(c1ccccc1)n1ccnc1", "strain or isolate": "40 isolates", "method": "broth dilution", "read-out": "MIC", "conditions": "pH 6", "value": "2 µg/mL"}
{"compound": "Clc1ccc(C(c2ccccc2)n2nnc3ccccc32)cc1", "method": "broth dilution", "read-out": "MFC", "value": ">256 µg/mL"}
{"compound": "CCC(C)CC(C)CCCCCCCCC(=O)N[C@H]1C[C@@H](O)[C@H](NCCN)NC(=O)[C@@H]2[C@@H](O)CCN2C(=O)[C@H]([C@H](O)CCN)NC(=O)[C@H]([C@H](O)[C@@H](O)c2ccc(O)cc2)NC(=O)[C@@H]2C[C@@H](O)CN2C(=O)[C@H]([C@@H](C)O)NC1=O", "method": "broth dilution", "read-out": "MIC90", "value": "2 µg/mL"}
{"compound": "C[C@@H]1CC(=O)N(c2ccc(Br)cc2)C1=O", "strain or isolate": "CCC 115-2000", "method": "broth dilution / turbidity", "read-out": "MIC", "value": "62.5 µg/mL"}
{"compound": "c1ccc(C(c2ccccc2)n2nnc3ccccc32)cc1", "method": "agar", "read-out": "MIC90", "value": ">256 µg/mL"}
{"compound": "CC(C)CC(=O)C(=O)O", "strain or isolate": "CCUG 32725", "method": "broth dilution", "read-out": "MFC100", "value": ">72000 µg/mL"}
{"compound": "COC(=O)[C@H]1[C@@H]2C[C@@H](O[C@@H]3O[C@H](C)[C@@H](O)[C@H](N)[C@@H]3O)/C=C/C=C/C=C/C=C/C=C/C=C/C=C/[C@H](C)[C@@H](O)[C@H](C)[C@H](C)OC(=O)C[C@H](O)C[C@H](O)[C@@H](O)CC[C@H](O)C[C@H](O)C[C@](O)(C[C@@H]1O)O2", "strain or isolate": "40 isolates", "method": "broth dilution", "read-out": "MIC", "conditions": "pH 6", "value": "0.125 µg/mL"}
{"compound": "C[C@@H]1C(=O)N(Cc2ccccc2)C(=O)[C@@H]1C", "strain or isolate": "CCC 115-2000", "method": "broth dilution / turbidity", "read-out": "MIC", "value": "125 µg/mL"}
{"compound": "O=C(c1ccccc1)C(c1ccccc1)n1nnc2ccccc21", "method": "broth dilution", "read-out": "MFC", "value": ">256 µg/mL"}
{"compound": "C[C@@H]1CC(=O)N(c2ccc(F)cc2)C1=O", "strain or isolate": "CCC 115-2000", "method": "broth dilution / turbidity", "read-out": "MIC", "value": "62.5 µg/mL"}
{"compound": "CCCCCOc1ccc(-c2cc(-c3ccc(C(=O)N[C@H]4C[C@@H](O)[C@@H](O)NC(=O)[C@@H]5[C@@H](O)[C@@H](C)CN5C(=O)[C@H]([C@H](O)CC(N)=O)NC(=O)[C@H]([C@H](O)[C@@H](O)c5ccc(O)c(OS(=O)(=O)O)c5)NC(=O)[C@@H]5C[C@@H](O)CN5C(=O)[C@H]([C@@H](C)O)NC4=O)cc3)no2)cc1", "method": "broth dilution", "read-out": "MIC90", "value": "0.03 µg/mL"}

3 of the rows above, restated:

compound | strain or isolate | method | read-out | conditions | value
C[C@@H]1CC(=O)N(c2ccc(F)cc2)C1=O | CCC 115-2000 | broth dilution / turbidity | MIC | - | 62.5 µg/mL
C[C@@H]1CC(=O)N(c2ccc(Br)cc2)C1=O | CCC 115-2000 | broth dilution / turbidity | MIC | - | 62.5 µg/mL
C[C@@H](c1ncncc1F)[C@](O)(Cn1cncn1)c1ccc(F)cc1F | 40 isolates | broth dilution | EC90 | pH 5 | >16 µg/mL